PubChem BioAssay AID624099 | ICCB-Longwood | 2012

Assay: 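Knock-downs relieving repression by E2 of an HPV18 LCR luciferase reporter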 (primary screen)
Cell system: human C33A cervical carcinoma cells (HPV-negative) stably expressing BPV1 E2 and an HPV18 LCR luciferase reporter
Reagents: siRNA pool against human genes, 40 nM
Timing: 72 h
Detection: 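Per-well luciferase luminescence, z-scored on each plate against the plate mean and SD with control wells left out, then averaged across three replicate plates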
Reading the numbers: mean z-score and z-score: higher = stronger reporter signal, weaker E2 silencing
Hit rule: 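Mean z ≥ 2 together with z ≥ 2 in two or more of the three replicates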
In all, the deposit lists about 21,000 reagents; shown is a random part of them. 497 of them (2.4%) were called active. 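Higher z means weaker E2 silencing; only reporter increases were scored, and knock-downs that hurt cell survival may mask genuine repressor factors.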 Reagents against one gene are numbered here.

| gene knocked down | reagent | mean z-score | z-score, replicate A | z-score, replicate B | z-score, replicate C | call |
| --- | --- | --- | --- | --- | --- | --- |
| ERCC6L2 | 1 | -0.66 | -0.84 | -0.8 | -0.33 | inactive |
| ERCC6L2 | 2 | -0.54 | -0.56 | -0.11 | -0.93 | inactive |
| PRR14L | 1 | -1.39 | -1 | -1.69 | -1.48 | inactive |
| NTS | 1 | 1.16 | 0.96 | 1.36 | 1.16 | inactive |
| SLC35A3 | 1 | -0.56 | -0.66 | -0.62 | -0.39 | inactive |
| TMEM234 | 1 | -0.83 | -0.81 | -0.78 | -0.9 | inactive |
| CPSF3 | 1 | 0.89 | 0.94 | 0.87 | 0.88 | inactive |
| ZNF174 | 1 | -0.66 | -0.6 | -0.76 | -0.61 | inactive |
| ATOSA | 1 | 0.8 | 0.78 | 0.8 | 0.84 | inactive |
| LINC01994 | 1 | 0.23 | 0.42 | -0.35 | 0.62 | inactive |
| LOC392084 (retired record) | 1 | -0.33 | -0.35 | -0.56 | -0.06 | inactive |
| INSL4 | 1 | 0.89 | 0.81 | 0.81 | 1.03 | inactive |
| MMP21 | 1 | 1.31 | 1.54 | 1.01 | 1.37 | inactive |
| UBE2NL | 1 | -1.01 | -0.94 | -0.95 | -1.14 | inactive |
| LOC440895 | 1 | -0.13 | -0.23 | -0.09 | -0.08 | inactive |
| BRSK2 | 1 | 0.17 | 0.03 | -0.13 | 0.59 | inactive |
| ZNF485 | 1 | 0.41 | 0.31 | 0.2 | 0.73 | inactive |
| EFNB3 | 1 | 0.09 | 0.48 | -0.21 | -0.01 | inactive |
| XPOT | 1 | -0.44 | -0.3 | -0.35 | -0.68 | inactive |
| NBEA | 1 | -1.14 | -1.71 | -0.69 | -1.01 | inactive |
| NXF1 | 1 | -3.83 | -3.99 | -3.69 | -3.8 | inactive |
| TOMM20L | 1 | 1.01 | 0.61 | 1.32 | 1.11 | inactive |
| FMNL3 | 1 | 0.51 | 0.04 | 0.84 | 0.64 | inactive |
| LOC399763 (retired record) | 1 | -0.72 | -0.71 | -0.52 | -0.94 | inactive |
| ENPP3 | 1 | -0.38 | -0.1 | -0.5 | -0.55 | inactive |
| ASB10 | 1 | -0.36 | -0.76 | -0.2 | -0.12 | inactive |
| FEZF2 | 1 | 0.04 | 0.47 | -0.17 | -0.17 | inactive |
| LINC01501 | 1 | 1 | 1.25 | 0.73 | 1.03 | inactive |
| CD248 | 1 | -1.08 | -1.25 | -0.9 | -1.09 | inactive |
| FUNDC2P1 | 1 | -0.46 | -0.29 | -0.9 | -0.19 | inactive |
| CCNL1 | 1 | 0.12 | 0.07 | 0.2 | 0.08 | inactive |
| DDX56 | 1 | -1.42 | -1.41 | -1.42 | -1.42 | inactive |
| KCNJ2 | 1 | -0.65 | -0.57 | -0.8 | -0.59 | inactive |
| TLN2-AS2 | 1 | 0.44 | 0.63 | 0.05 | 0.64 | inactive |
| YPEL3-DT | 1 | 0.69 | 0.54 | 0.95 | 0.58 | inactive |
| ASF1B | 1 | 0.76 | 0.64 | 0.88 | – | inactive |
| HNRNPL | 1 | -0.22 | -0.13 | -0.6 | 0.07 | inactive |
| NELFE | 1 | -0.65 | -0.45 | -0.75 | -0.75 | inactive |
| RIPK1 | 1 | 0.28 | 0.23 | 0 | 0.61 | inactive |
| PATE2 | 1 | 0.04 | 0.52 | -0.56 | 0.15 | inactive |
| LOC284912 | 1 | -1.44 | -1.61 | -1.36 | -1.36 | inactive |
| C3orf85 | 1 | 0.02 | 0.21 | -0.39 | 0.23 | inactive |
| HPS5 | 1 | 0.7 | 1.16 | 0.41 | 0.55 | inactive |
| CLINT1 | 1 | -2.6 | -2.67 | -2.5 | -2.64 | inactive |

Taken from above.
For “z-score, replicate C”, LOC392084 (retired record) is entered as -0.06
For “z-score, replicate B”, HPS5 has 0.41
Entry for MMP21 under “call”: inactive
Value of XPOT in “z-score, replicate A”: -0.3
Value of ERCC6L2 #2 under “z-score, replicate A”: -0.56
Entry for LINC01994 in “z-score, replicate B”: -0.35

Further reagents follow:
| gene knocked down | reagent | mean z-score | z-score, replicate A | z-score, replicate B | z-score, replicate C | call |
| --- | --- | --- | --- | --- | --- | --- |
| FAM13B | 1 | -0.61 | -0.03 | -0.89 | -0.92 | inactive |
| ADGRE5 | 1 | 0.44 | 0.53 | 0.32 | 0.46 | inactive |
| GAB4 | 1 | 0.42 | 0.36 | 0.81 | 0.09 | inactive |
| VWA5B1 | 1 | 0.04 | 0.17 | -0.25 | 0.21 | inactive |
| TYW2 | 1 | -0.22 | -0.74 | 0 | 0.08 | inactive |
| CDC42SE2 | 1 | 0.55 | 0.85 | 0.55 | 0.26 | inactive |
| MPHOSPH8 | 1 | 1.61 | 1.49 | 1.59 | 1.74 | inactive |
| KIF19BP | 1 | -0.28 | -0.07 | -0.62 | -0.14 | inactive |
| TTC33 | 1 | 1.87 | 1.74 | 1.8 | 2.08 | inactive |
| BNC2 | 1 | -0.24 | -0.04 | -0.38 | -0.31 | inactive |
| PSG6 | 1 | 1.91 | 1.56 | 2.08 | 2.09 | inactive |
| FLVCR2 | 1 | -1.28 | -1.32 | -1.35 | -1.15 | inactive |
| ANKRD13A | 1 | 0.12 | -0.02 | 0.01 | 0.37 | inactive |
| ADGRF4 | 1 | -0.16 | -0.41 | -0.2 | 0.15 | inactive |
| CUL5 | 1 | -0.62 | -0.54 | -0.54 | -0.76 | inactive |
| ODF1 | 1 | -0.1 | 0.16 | -0.17 | -0.28 | inactive |
| AGO2 | 1 | 1.07 | 1.22 | 1.33 | 0.65 | inactive |
| PNO1 | 1 | 0.3 | 0.35 | 0.43 | 0.12 | inactive |
| CLCNKB | 1 | 1.11 | 0.87 | 1.1 | 1.37 | inactive |
| MAFA | 1 | 0.8 | 0.21 | 1.48 | 0.71 | inactive |
| NT5M | 1 | -1.64 | -1.5 | -1.6 | -1.83 | inactive |
| LOC401057 (retired record) | 1 | 0.52 | 0.74 | 0.47 | 0.34 | inactive |
| OR2J2 | 1 | -1.28 | -1.29 | -1.5 | -1.05 | inactive |
| KY | 1 | -0.54 | -0.4 | -0.78 | -0.43 | inactive |
| ALCAM | 1 | 0.54 | 0.28 | 0.84 | 0.49 | inactive |
| PIGO | 1 | -0.21 | -0.28 | -0.29 | -0.06 | inactive |
| THSD1 | 1 | -1.21 | -1.25 | -1.38 | -1 | inactive |
| LOC93429 | 1 | 0.57 | 0.42 | 0.71 | 0.59 | inactive |
| PSPC1 | 1 | -0.29 | -0.22 | -0.11 | -0.55 | inactive |
